Structure probing of HIV-1 leader RNA with DMS

Values reported by Ye et al. 2022 (doi:10.1038/s41594-022-00746-2).

The 5' region of HIV-1 NL4-3 RNA (positions 1-437):
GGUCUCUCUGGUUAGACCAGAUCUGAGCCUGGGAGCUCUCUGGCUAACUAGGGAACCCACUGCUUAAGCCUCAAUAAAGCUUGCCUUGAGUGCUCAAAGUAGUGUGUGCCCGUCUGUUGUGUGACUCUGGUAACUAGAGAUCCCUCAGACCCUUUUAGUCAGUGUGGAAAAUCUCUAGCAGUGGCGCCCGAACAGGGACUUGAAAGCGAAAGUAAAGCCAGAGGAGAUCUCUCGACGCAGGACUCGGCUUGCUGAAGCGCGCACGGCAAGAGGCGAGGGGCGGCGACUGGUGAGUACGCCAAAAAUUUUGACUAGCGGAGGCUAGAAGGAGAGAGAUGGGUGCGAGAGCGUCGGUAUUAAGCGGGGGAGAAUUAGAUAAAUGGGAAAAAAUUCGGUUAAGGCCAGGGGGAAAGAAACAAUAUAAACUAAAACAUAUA

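Mutant RNA libraries with 1G, 2G or 3G starts, with or without cap, were folded at 37 °C for 30 min. Monomer and dimer bands were cut from native gels after folding in high salt (300 mM KCl, 5 mM MgCl2) or low salt (40 mM KCl, 0.1 mM MgCl2). Each band was probed in the gel with DMS (170 mM, 15 min, 37 °C), with ethanol as control, and sequenced.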

Scale: normalised reactivity, A and C only; low values point to paired or protected bases, higher values to unpaired ones. One numbering serves 1G, 2G and 3G. A position is written with its base.

position,domain,3G uncapped high-salt dimer,3G uncapped high-salt monomer
A161,PBS,0.44,0.51
A168,PBS,0.45,0.47
A169,PBS,0.70,0.72
A170,PBS,0.47,0.57
A171,PBS,0.41,0.47
C173,PBS,0.03,0.03
C175,PBS,0.03,0.03
A177,PBS,0.23,0.23
C179,PBS,0.95,0.94
A180,PBS,0.63,0.69
C185,PBS,0.50,0.50
C187,PBS,0.03,0.03
C188,PBS,0.05,0.06
C189,PBS,0.07,0.09
A191,PBS,0.35,0.41
A192,PBS,0.81,0.84
C193,PBS,0.87,0.91
A194,PBS,1.01,1.10
A198,PBS,0.52,0.58
C199,PBS,0.45,0.45
A203,PBS,0.46,0.52
A204,PBS,0.64,0.71
A205,PBS,0.26,0.33
C207,PBS,0.50,0.44
A209,PBS,0.37,0.47
A210,PBS,0.39,0.55
A211,PBS,0.43,0.43
A214,PBS,0.28,0.28
A215,PBS,0.58,0.56
A216,PBS,0.70,0.64
C218,antiPAS,0.04,0.03
C219,antiPAS,0.04,0.03
A220,antiPAS,0.18,0.31
A222,antiPAS,0.23,0.25
A225,none,0.79,0.80
A227,CU,0.28,0.35
C229,CU,0.17,0.34
C231,CU,0.14,0.20
C233,CU,0.18,0.33
A235,none,0.69,0.57
C236,none,0.42,0.44
C238,none,0.49,0.78
A239,none,0.65,0.59
A242,none,1.11,0.76
C243,SL1,0.03,0.05
C245,SL1,0.08,0.36
C248,SL1,0.03,0.06
C252,SL1,0.07,0.30
A255,SL1,0.37,0.49
A256,SL1,0.90,0.73
C258,SL1,0.23,0.27
C260,SL1,0.31,0.38
C262,SL1,0.22,0.31
A263,SL1,0.81,0.20
C264,SL1,0.21,0.41
C267,SL1,0.06,0.12
A268,SL1,0.14,0.25
A269,SL1,0.23,0.45
A271,SL1,0.46,0.49
C274,SL1,0.27,0.76
A276,SL1,0.40,1.14
C281,none,0.34,0.32
C284,SL2,0.15,0.20
A286,SL2,0.57,0.54
C287,SL2,0.40,0.32
A293,SL2,0.81,0.74
A296,SL2,0.52,0.61
C297,SL2,0.12,0.14
C299,SL2,0.09,0.08
C300,none,0.08,0.09
A301,none,0.23,0.23
A302,none,1.18,1.16
A303,none,0.07,0.07
A304,none,0.12,0.15
A305,none,0.68,0.72
A311,none,1.18,1.22
C312,SL3,0.09,0.12
A314,SL3,0.03,0.04
C316,SL3,0.05,0.10
A319,SL3,0.80,0.85
C322,SL3,0.03,0.03
A324,SL3,0.09,0.13
A326,none,0.83,0.92
A327,none,1.01,1.01
A330,none,0.80,0.93
A332,none,0.46,0.61
A334,AUG,0.36,0.52
A336,AUG,0.67,0.71